Results of unrelated studies side by side (data: NIAID ChemDB).

Shared fields: tests on isolated targets; species: Hepatitis C virus

Blank or dashed fields: not listed here. Two numbers with a dash give a range or band. Rows are shuffled and stem from different studies. ICn is the concentration giving n% inhibition. Percent inhibition refers to the dose given; in toxicity tests it is the harm to the cells.

O=C(NCCO)c1cc2nc(-c3ccc(Cl)cc3)cc(-c3ccc(Oc4ccccc4)cc3)n2n1 ; read-out: IC50 ; protein: RNA-dependent RNA polymerase ; value: >10 µM
Cc1ccc(-c2cc(NS(=O)(=O)c3ccccc3C)c(C(=O)O)s2)nc1 ; read-out: IC50 ; protein: NS3 ATPase ; value: <5 µM
O=C(NCc1ccc(Cl)cc1Cl)Nc1ccccc1-c1nc(C(=O)O)c(O)c(=O)[nH]1 ; read-out: IC50 ; protein: HCV polymerase ; value: <100 µM
CC(=O)N(Cc1ccc(C(F)(F)F)cc1)c1cc(-c2ccccc2)sc1C(=O)O ; read-out: IC50 ; protein: NS3 ATPase ; value: 5–20 µM
Clc1ccc(Oc2ccc(-c3cnc4c(-c5nn[nH]n5)cnn4c3C3CCCCC3)cc2)cc1Cl ; read-out: IC50 ; protein: RNA-dependent RNA polymerase ; value: 1–10 µM
Cc1cc(-c2ccc3cc(-c4nc5cc(C(=O)O)ccc5n4C4CCCCC4)ccc3n2)c(-c2ccccc2)s1 ; read-out: inhibition ; tested at: 33 µM ; protein: NS5B polymerase ; value: 97.1%
CN(C(=O)c1c(F)cc(F)cc1F)c1cc(-c2ccccc2)sc1C(=O)O ; read-out: IC50 ; protein: NS3 ATPase ; value: 5–20 µM
O=C(Nc1ccsc1-c1nc(C(=O)O)c(O)c(=O)[nH]1)OCCc1ccccc1Br ; read-out: IC50 ; protein: HCV polymerase ; value: <25 µM
O=C(O)c1ccc2c(c1)nc(-c1ccc3nc(-c4ccc(-n5ccnc5)cc4)ccc3c1)n2C1CCCCC1 ; read-out: inhibition ; tested at: 100 µM ; protein: NS5B polymerase ; value: 97.41%
O=C(NCc1cc(Cl)ccc1Cl)Nc1ccccc1-c1nc(C(=O)O)c(O)c(=O)[nH]1 ; read-out: IC50 ; protein: HCV polymerase ; value: <100 µM
FC(F)(F)c1cc(COc2ccc(-c3cnc4c(-c5nn[nH]n5)cnn4c3C3CCCCC3)cc2)ccc1Cl ; read-out: IC50 ; protein: RNA-dependent RNA polymerase ; value: 1–10 µM
Cc1nn(CC(=O)Nc2ccsc2-c2nc(C(=O)O)c(O)c(=O)[nH]2)c(=O)c2ccccc12 ; read-out: IC50 ; protein: HCV polymerase ; value: <25 µM
O=C(O)c1cccc(COc2ccc(-c3cnc4c(-c5nn[nH]n5)cnn4c3C3CCCCC3)cc2)c1 ; read-out: IC50 ; protein: RNA-dependent RNA polymerase ; value: 1–10 µM
O=C(NC(CO)C(=O)O)c1ccc2c(c1)nc(-c1ccc3ncccc3c1)n2C1CCCCC1 ; read-out: inhibition ; tested at: 100 µM ; protein: NS5B polymerase ; value: 97.54%
Cc1ccc(S(=O)(=O)Nc2cc(-c3ccc(C(N)=O)cc3)sc2C(=O)O)cc1 ; read-out: IC50 ; protein: NS3 ATPase ; value: <5 µM
c1ccc(Oc2cccc(-c3c(-c4ccccc4)cnc4c(-c5nn[nH]n5)cnn34)c2)cc1 ; read-out: IC50 ; protein: RNA-dependent RNA polymerase ; value: >10 µM
CNC(=O)c1c(-c2ccc(F)cc2)oc2cc(-c3ccn[nH]3)c(OC(C)C)cc12 ; read-out: IC50 ; protein: Nonstructural protein 5B ; value: ≤0.5 µM
NC(=O)CNC(=O)c1ccc(-c2ccccc2)c(-c2ccc3cc(-c4nc5cc(C(=O)O)ccc5n4C4CCCCC4)ccc3n2)c1 ; read-out: inhibition ; tested at: 33 µM ; protein: NS5B polymerase ; value: 99.2%
CC(C)(C)c1ccc(CN(C(=O)C2CCCCC2)c2cc(-c3ccccc3)sc2C(=O)O)cc1 ; read-out: IC50 ; protein: NS3 ATPase ; value: <5 µM
O=C(Nc1ccsc1-c1nc(C(=O)O)c(O)c(=O)[nH]1)OCc1c(Cl)cccc1Cl ; read-out: IC50 ; protein: HCV polymerase ; value: <25 µM
CNC(=O)c1c(-c2ccc(F)cc2)oc2cc(N3CCOCC3)c(OCc3cccc4c3C(=O)OC(C)(C)O4)cc12 ; read-out: IC50 ; protein: Nonstructural protein 5B ; value: ≤0.5 µM
CCC(=O)C(=O)CC(=O)Nc1cnn2c(C3CCCCC3)c(-c3ccc(OCc4ccccc4)cc3)cnc12 ; read-out: IC50 ; protein: RNA-dependent RNA polymerase ; value: >10 µM
CSCCC(NC(=O)c1ccc2c(c1)nc(-c1cc3ncc(-c4ccccc4)nc3cc1F)n2C1CCCCC1)C(=O)O ; read-out: inhibition ; tested at: 33 µM ; protein: NS5B polymerase ; value: 81.94%
CCCOc1cc2c(C(=O)NC)c(-c3ccc(F)cc3)oc2cc1NS(C)(=O)=O ; read-out: IC50 ; protein: Nonstructural protein 5B ; value: ≤0.5 µM
CN(C(=O)c1ccc(Cl)nc1Cl)c1cc(-c2ccccc2)sc1C(=O)O ; read-out: IC50 ; protein: NS3 ATPase ; value: 5–20 µM
COc1ccc(-c2ccc(O)cc2)c(-c2ccc3cc(-c4nc5cc(C(=O)O)ccc5n4C4CCCCC4)ccc3n2)c1 ; read-out: inhibition ; tested at: 33 µM ; protein: NS5B polymerase ; value: 94.22%
O=C(O)c1cc2nc(-c3cccc(Cl)c3)cc(-c3ccccc3OCc3ccccc3)n2n1 ; read-out: IC50 ; protein: RNA-dependent RNA polymerase ; value: 1–10 µM
NCC(NC(=O)Nc1ccsc1-c1nc(C(=O)O)c(O)c(=O)[nH]1)c1ccccc1 ; read-out: IC50 ; protein: HCV polymerase ; value: <25 µM
COc1cccc(CN(C(=O)CC(C)C)c2cc(-c3ccccc3)sc2C(=O)O)c1 ; read-out: IC50 ; protein: NS3 ATPase ; value: <5 µM
COc1ccc(-c2ccc(Cl)cc2)c(-c2ccc3cc(-c4nc5cc(C(=O)O)ccc5n4C4CCNCC4)ccc3n2)c1 ; read-out: inhibition ; tested at: 33 µM ; protein: NS5B polymerase ; value: 32.53%
O=S(=O)(Nc1cnn2c(C3CCCCC3)c(-c3ccc(OCc4ccccc4)cc3)cnc12)c1ccccc1 ; read-out: IC50 ; protein: RNA-dependent RNA polymerase ; value: >10 µM
NC(=O)[C@H](Cc1ccccc1)NC(=O)c1ccc2cc(-c3nc4cc(C(=O)O)ccc4n3C3CCCCC3)ccc2n1 ; read-out: inhibition ; tested at: 33 µM ; protein: NS5B polymerase ; value: 81.13%
CNC(=O)c1c(-c2ccc(F)cc2)oc2cc(N(C)S(C)(=O)=O)c(OCC3CC3)cc12 ; read-out: IC50 ; protein: Nonstructural protein 5B ; value: ≤0.5 µM
Cc1ccc(COC(=O)Nc2ccsc2-c2nc(C(=O)O)c(O)c(=O)[nH]2)cc1 ; read-out: IC50 ; protein: HCV polymerase ; value: <25 µM

The last 2 rows once more:

smiles,read-out,tested at,protein,value
CNC(=O)c1c(-c2ccc(F)cc2)oc2cc(N(C)S(C)(=O)=O)c(OCC3CC3)cc12,IC50,,Nonstructural protein 5B,≤0.5 µM
Cc1ccc(COC(=O)Nc2ccsc2-c2nc(C(=O)O)c(O)c(=O)[nH]2)cc1,IC50,,HCV polymerase,<25 µM